# Experimental data taken from US11473074.
# Biological target: collagenase II from C. histolyticum
protein,measurement,value
"neutral protease from C. histolyticum, isolated from the HIC CIP water wash of the collagenase manufacturing process (protein) QATHAQVRGVNSSGEHKILNGMFENGRYFLADSTRPSNGYILTYDANNQEYGFPGSLFSNLTGIFDSDRQKAGVDAHHNLTQVYDYYKNVLNRDSFDGKGASIISSVHVGNNLNNAFWNGRQILFGDGDGVTFSNLAKCLEVTAHEFTHAVTQSTAGLEYRFQSGALNEAFSDILGIAVHSDPNDWEIGEDIYTPNVAGDALRSMSNPRLYRQPDHMKDYLYWDYSMDKGGVHYNSGIPNKAAYLMGKEVGKDSMAKIYYHALVNYLTPQSTFEDARNAVVSSAIDLHGENSKEHKLAIKSWADVGVGEEAVR","proteolytic digestion, fragments seen by SDS-PAGE",The 96 kDa fragment was recreated by exposing AUX-II to the neutral protease
